Only a part is listed here, and it is no random draw. Records with an inconclusive call do not appear. Active and inactive are the calls of the source. No stated cut-off is given here; in the data, active means inhibition above about 35% (passing the limit was not always enough); inconclusive means no clear call, values can overlap the other calls.
System: Botulinum neurotoxin type F light chain protease (Clostridium botulinum)
Experiment: BoNT/F light chain protease inhibitors, primary screen, biochemical, flow cytometry, MLPCN library (AID 588497); further: plate controls were buffer without enzyme for full effect and enzyme alone for no effect
Settings: Multiplex microsphere protease cleavage assay, at 10 µM, hits give high values

Row | Compound | inhibition
1 | O=[N+]([O-])C1C(O)C(O)C([N+](=O)[O-])C(O)C1O (stereo not given) | inactive: -6.3%
2 | Oc1ccccc1CNc1ccccn1 | inactive: -3.4%
3 | O=C(NC(Sc1ccncn1)C(Cl)(Cl)Cl)c1ccccc1 (stereo not given) | inactive: 0.7%
4 | CC(C)CC(=O)NC(Sc1ccc(Cl)cc1)C(Cl)(Cl)Cl (stereo not given) | inactive: -6.7%
5 | CN1CCCC(OC(=O)C(c2ccccc2)c2ccccc2)C1 (stereo not given) | inactive: 5.6%
6 | Clc1ccc(Cl)c(NC2=NCC(CBr)S2)c1 (stereo not given) | inactive: -10.4%
7 | COc1ccccc1OP(=O)(Nc1ccc(C)cn1)Oc1ccccc1OC | inactive: -3.1%
8 | CN(C(=O)Cc1ccc(Cl)c(Cl)c1)[C@H]1CCCC[C@H]1N1CCCC1 | inactive: -9.4%
9 | Cc1ccc(N/C(=N/P(=O)(N2CCOCC2)N2CCOCC2)N2CCOCC2)cc1 | inactive: -4.1%
10 | NC(=O)c1cc([N+](=O)[O-])cc([N+](=O)[O-])c1N | inactive: 6.4%
11 | Nc1cccc2ccc([As](=O)(O)O)cc12 | active: 36.7%
12 | CCN(N=Nc1nonc1N)c1nonc1N | inactive: 3.8%
13 | Cc1cc(SC(NC(=O)c2ccc(F)cc2)C(Cl)(Cl)Cl)ncn1 (stereo not given) | inactive: -8%
14 | CCOP(=O)(Nc1ccccc1)OCC | inactive: 5.3%
15 | CN(C(=O)Cc1ccc(Cl)c(Cl)c1)[C@H]1CCCC[C@@H]1N1CCCC1 | inactive: -8.1%
16 | Cc1ccc(NP(=O)(Oc2ccccc2F)Oc2ccccc2F)nc1 | inactive: -8.8%
17 | O=P(Nc1nc2ccc(Cl)cc2s1)(c1ccccc1)c1ccccc1 | inactive: 0.9%
18 | CN(C)P(=O)(N(C)C)n1c(Nc2ccccc2)nnc1-c1ccccc1 | inactive: -5.1%
19 | CC(=O)Nc1ccc([As](=O)(O)O)cc1 | inactive: 1.8%
20 | O=C(O)c1ccccc1[As](=O)(O)O | inactive: -0.1%
21 | CCCC1OP(N)(=O)OCC1CC (stereo not given) | inactive: -3.6%
22 | COC(=O)C1(C)COP(=O)(Nc2ccccc2)OC1 (stereo not given) | inactive: 3.1%
23 | O=[N+]([O-])c1ncn(CCn2ncnc2[N+](=O)[O-])n1 | inactive: -4.8%
24 | CC(C)(C)C(=O)NC(Sc1ccncn1)C(Cl)(Cl)Cl (stereo not given) | inactive: -5.5%
25 | O=P1(N(CCCl)CCCl)OCCCS1 (stereo not given) | inactive: 3.2%
26 | CC1CCN(C(=O)Oc2c(Cl)cc(Cl)c3cccnc23)CC1 | inactive: 0.9%
27 | c1cc(-c2nn[nH]n2)ccc1-c1nn[nH]n1 | inactive: 4.4%
28 | CC(C)c1nc(Nc2ccccc2)n(P(=O)(N(C)C)N(C)C)n1 | inactive: -3.7%
29 | CC(C)=N/N=C(\N)N[N+](=O)[O-] | inactive: -1.2%
30 | CN(C)C(=O)OCCc1n(C)cc[n+]1C | inactive: -6.6%

— PubChem BioAssay AID588497 (NMMLSC, 2011)
